For this assay, the system named is Yersinia pestis. Kind of assay: Antimicrobial activity against Yersinia pestis KIM6+. The format is functional.

≈ marks a conversion by molar mass, not a printed value.

As usually defined, the MIC is the least concentration at which growth counts as inhibited. Read a high MIC as a less susceptible organism.

As for `C[C@@H](O)[C@H]1C(=O)N2C(C(=O)O)=C(S[C@@H]3CC[S+]([O-])C3)S[C@H]12` (stereo partly specified), inhibition of growth (MIC) required 32 µg/mL (≈ 91.6 µM).
